Measurements taken from patent publication US20240317834A1, “COMPOSITIONS AND METHODS FOR NEUROLOGICAL DISEASES” (CODA BIOTHERAPEUTICS, published 2024).

Experiments:
[1] = biological target: T1, CODA1045 (R101W, Y210V in SEQ ID NO: 33) (human (chimera of human α7-nAChR and …))
T1 chain: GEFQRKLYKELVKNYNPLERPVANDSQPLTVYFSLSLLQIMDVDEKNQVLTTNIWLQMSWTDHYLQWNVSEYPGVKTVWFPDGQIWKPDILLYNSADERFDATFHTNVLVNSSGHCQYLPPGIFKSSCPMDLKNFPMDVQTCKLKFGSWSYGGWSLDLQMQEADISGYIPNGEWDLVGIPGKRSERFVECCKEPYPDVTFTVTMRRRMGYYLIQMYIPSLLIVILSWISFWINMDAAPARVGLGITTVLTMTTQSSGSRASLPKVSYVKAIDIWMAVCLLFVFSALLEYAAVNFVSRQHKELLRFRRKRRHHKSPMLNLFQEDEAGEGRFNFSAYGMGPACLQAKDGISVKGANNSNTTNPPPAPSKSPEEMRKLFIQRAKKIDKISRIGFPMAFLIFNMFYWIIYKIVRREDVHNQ

[2] = biological target: T2, CODA1054 (R101M, L131F in SEQ ID NO: 33) (human (chimera of human α7-nAChR and …))
T2 chain: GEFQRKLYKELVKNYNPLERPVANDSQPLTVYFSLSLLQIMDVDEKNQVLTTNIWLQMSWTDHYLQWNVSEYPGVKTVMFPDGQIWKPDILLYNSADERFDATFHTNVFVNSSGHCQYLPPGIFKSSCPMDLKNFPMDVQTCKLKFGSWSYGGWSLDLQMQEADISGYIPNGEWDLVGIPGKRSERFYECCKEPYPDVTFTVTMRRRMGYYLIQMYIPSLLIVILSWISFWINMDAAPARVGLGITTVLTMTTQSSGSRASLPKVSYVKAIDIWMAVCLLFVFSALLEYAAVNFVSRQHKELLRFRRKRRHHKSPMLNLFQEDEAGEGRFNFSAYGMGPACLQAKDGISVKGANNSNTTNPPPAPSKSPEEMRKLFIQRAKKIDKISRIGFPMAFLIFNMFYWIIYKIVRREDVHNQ

[3] = biological target: T3, CODA1025 (R101F, L131G in SEQ ID NO: 33) (human (chimera of human α7-nAChR and …))
T3 chain: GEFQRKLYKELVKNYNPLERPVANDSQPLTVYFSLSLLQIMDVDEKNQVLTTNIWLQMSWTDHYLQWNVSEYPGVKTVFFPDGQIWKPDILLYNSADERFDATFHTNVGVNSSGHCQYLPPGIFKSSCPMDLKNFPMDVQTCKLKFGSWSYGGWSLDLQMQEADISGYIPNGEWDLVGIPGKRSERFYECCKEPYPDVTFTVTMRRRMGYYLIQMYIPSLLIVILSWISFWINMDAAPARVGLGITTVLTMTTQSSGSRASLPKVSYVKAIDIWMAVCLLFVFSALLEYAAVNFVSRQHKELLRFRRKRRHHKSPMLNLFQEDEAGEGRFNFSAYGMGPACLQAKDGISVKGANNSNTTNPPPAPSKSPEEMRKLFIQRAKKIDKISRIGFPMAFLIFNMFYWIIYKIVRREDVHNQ

[4] = biological target: T4, CODA535 (L131T, S172D in SEQ ID NO: 33) (human (chimera of human α7-nAChR and …))
T4 chain: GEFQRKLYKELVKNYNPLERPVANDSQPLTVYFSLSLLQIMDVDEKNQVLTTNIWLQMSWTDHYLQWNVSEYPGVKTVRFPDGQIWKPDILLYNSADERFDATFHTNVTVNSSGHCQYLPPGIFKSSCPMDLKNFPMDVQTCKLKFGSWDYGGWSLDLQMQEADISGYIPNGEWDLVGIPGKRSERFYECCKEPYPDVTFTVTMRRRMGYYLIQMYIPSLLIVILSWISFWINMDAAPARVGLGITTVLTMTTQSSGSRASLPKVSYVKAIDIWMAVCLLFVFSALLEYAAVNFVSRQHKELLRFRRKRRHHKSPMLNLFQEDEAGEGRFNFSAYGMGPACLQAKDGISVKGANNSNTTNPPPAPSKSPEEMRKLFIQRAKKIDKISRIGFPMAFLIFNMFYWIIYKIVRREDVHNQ

[5] = biological target: T5, CODA1053 (R101M, L131A in SEQ ID NO: 33) (human (chimera of human α7-nAChR and …))
T5 chain: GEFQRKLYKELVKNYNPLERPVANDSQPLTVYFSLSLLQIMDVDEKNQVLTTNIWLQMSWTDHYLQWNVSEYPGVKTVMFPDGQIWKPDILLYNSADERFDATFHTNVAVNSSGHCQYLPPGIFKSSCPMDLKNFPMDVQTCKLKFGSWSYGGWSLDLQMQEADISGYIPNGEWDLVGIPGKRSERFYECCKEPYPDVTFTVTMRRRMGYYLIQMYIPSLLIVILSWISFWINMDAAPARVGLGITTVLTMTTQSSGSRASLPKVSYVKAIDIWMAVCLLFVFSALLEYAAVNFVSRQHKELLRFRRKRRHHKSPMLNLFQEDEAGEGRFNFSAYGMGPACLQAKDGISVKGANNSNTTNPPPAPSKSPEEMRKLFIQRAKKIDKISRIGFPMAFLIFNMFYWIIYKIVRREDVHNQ

[6] = biological target: T6, CODA534 (L131S, S172D in SEQ ID NO: 33) (human (chimera of human α7-nAChR and …))
T6 chain: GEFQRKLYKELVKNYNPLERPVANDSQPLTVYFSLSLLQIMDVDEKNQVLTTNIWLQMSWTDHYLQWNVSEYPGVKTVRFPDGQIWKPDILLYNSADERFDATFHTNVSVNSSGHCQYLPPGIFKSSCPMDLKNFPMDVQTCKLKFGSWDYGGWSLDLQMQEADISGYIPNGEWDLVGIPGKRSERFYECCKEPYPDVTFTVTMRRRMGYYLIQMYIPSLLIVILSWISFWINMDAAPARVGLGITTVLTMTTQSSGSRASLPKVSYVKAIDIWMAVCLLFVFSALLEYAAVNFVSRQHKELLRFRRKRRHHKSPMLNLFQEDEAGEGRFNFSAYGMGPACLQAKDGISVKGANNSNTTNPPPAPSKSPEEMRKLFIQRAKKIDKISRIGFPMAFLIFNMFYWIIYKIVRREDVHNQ

[7] = biological target: CODA1073

B1: α-bungarotoxin conjugated to Alexa Fluor 647 (ligand)
chain: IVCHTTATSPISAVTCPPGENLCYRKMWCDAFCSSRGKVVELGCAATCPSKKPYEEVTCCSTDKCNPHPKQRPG
Q: With B1 as the binder, how does the “Normalized AB MFI” value [1] read?
A: Its value is 0.35 ratio to SEQ ID NO: 33 control.

Q: And the “Normalized AB MFI” value [2]?
A: The value was 0.82 ratio to SEQ ID NO: 33 control.

Q: What about the “Normalized AB MFI” value [3] of the same binder?
A: The value was 0.9 ratio to SEQ ID NO: 33 control.

Q: And the “Normalized AB %” value [4]?
A: Its value is 0.43 ratio to SEQ ID NO: 33 control.

Q: What about the “Normalized AB %” value [5] of the same binder?
A: The value was 0.91 ratio to SEQ ID NO: 33 control.

Q: And the “Normalized AB MFI” value [5]?
A: The value was 0.9 ratio to SEQ ID NO: 33 control.

Q: And the “Normalized AB MFI” value [6]?
A: Its value is 0.91 ratio to SEQ ID NO: 33 control.

Q: And the “Normalized AB %” value [7]?
A: Its value is 0.44 ratio to SEQ ID NO: 33 control.
